Pooled drug test results. Numbers come from NIAID ChemDB, via PubChem.

All rows: whole-cell or culture tests; agent: Staphylococcus aureus

Neighbouring rows are from separate reports.

| SMILES | measure | strain | result |
|---|---|---|---|
| CC[C@H]1OC(=O)[C@@](C)(F)C(=O)[C@H](C)[C@@H](O[C@@H]2O[C@H](C)C[C@H](N(C)C)[C@H]2O)[C@@]2(C)C[C@@H](C)C(=NC(C)=O)[C@H](C)[C@@H](OC/C(=N\OCc3ccc4cnn(C(N)=O)c4c3)CO2)[C@]1(C)O | MIC | 27660 (erythromycin A -resistant) | 0.13 µg/mL |
| CNc1c(F)cc2c(=O)c(C(=O)O)cn(-c3cc(N)c(F)cc3F)c2c1C | MIC | W806 (methicillin-resistant) | 0.5 µg/mL |
| O=C(NC[C@H]1CN(c2ccc3c(c2)-n2cccc2COC3)C(=O)O1)C1CC1 | MIC | ATCC 33591 (MRSA) | 4 µg/mL |
| CCNCCCN(CC)c1cc2c(cc1F)c(=O)c(C(=O)O)cn2C1CC1 | MIC | ATCC 5278 (methicillin-resistant) | 12.5 µg/mL |
| CC[C@H]1OC(=O)[C@@](C)(F)C(=O)[C@H](C)[C@@H](O[C@@H]2O[C@H](C)C[C@H](N(C)C)[C@H]2O)[C@@]2(C)C[C@@H](C)C(=NC(C)=O)[C@H](C)[C@@H](OC/C(=N\OCc3ccc(-c4cccc(N)n4)s3)CO2)[C@]1(C)O | MIC | 29213 (erythromycin A-susceptible) | 0.25 µg/mL |
| CC(C)OC(=S)NC[C@H]1CN(c2ccc3c(c2)-n2cccc2COC3)C(=O)O1 | MIC | ATCC 49951 (SMITH) | >32 µg/mL |
| CC[C@H]1OC(=O)[C@H](C)C(=O)[C@H](C)[C@@H](O[C@@H]2O[C@H](C)C[C@H](N(C)C)[C@H]2O)[C@@]2(C)C[C@@H](C)C(=NC(C)=O)[C@H](C)[C@@H](OC/C(=N/OCc3ccc(-c4cccc(N)n4)s3)CO2)[C@]1(C)O | MIC | 29213 (erythromycin A-susceptible) | 0.5 µg/mL |
| CC[C@H]1OC(=O)[C@H](C)C(=O)[C@H](C)[C@@H](O[C@@H]2O[C@H](C)C[C@H](N(C)C)[C@H]2O)[C@@]2(C)C[C@@H](C)C(=NC(C)=O)[C@H](C)[C@@H](OC/C(=N\OCc3ccc(C(N)=O)cc3)CO2)[C@]1(C)O | MIC | 27660 (erythromycin-resistant) | 0.13 µg/mL |
| O=C1O[C@@H](COc2ccon2)CN1c1ccc(N2CC[C@H](O)C2)c(F)c1 | MIC | 078 (oxford) | 2 µg/mL |
| CC[C@H]1OC(=O)[C@@](C)(F)C(=O)[C@H](C)[C@@H](O[C@@H]2O[C@H](C)C[C@H](N(C)C)[C@H]2O)[C@@]2(C)C[C@@H](C)C(=NC(C)=O)[C@H](C)[C@@H](OC/C(=N\OCc3ccc4nc(N)sc4c3)CO2)[C@]1(C)O | MIC | 33591 (erythromycin methicillin-resistant) | 32 µg/mL |
| CO/N=C1\CN(c2nc3c(cc2F)c(=O)c(C(=O)O)cn3C2CC2)CC1CN | MIC | KU2241 | 0.063 µg/mL |
| Cc1c(NC2CC2)c(F)cc2c(=O)c(C(=O)O)cn(-c3cc(N)c(F)cc3F)c12 | MIC | W200 (methicillin-resistant) | 0.015 µg/mL |
| CCC(=S)NC[C@H]1CN(c2ccc3c(c2)-n2cccc2COC3)C(=O)O1 | MIC | ATCC 29213 (MSSA) | 4 µg/mL |
| CC[C@H]1OC(=O)[C@H](C)C(=O)[C@H](C)[C@@H](O[C@@H]2O[C@H](C)C[C@H](N(C)C)[C@H]2O)[C@@]2(C)C[C@@H](C)C(=NC(C)=O)[C@H](C)[C@@H](OC/C(=N\OCc3cccc(N)n3)CO2)[C@]1(C)O | MIC | 25923 (erythromycin-susceptible) | 0.25 µg/mL |
| CN1CCN(c2cc3c(cc2F)c(=O)c(C(=O)O)cn3C2CC2)CC1 | MIC | ATCC 5278 (methicillin-resistant) | 1.56 µg/mL |
| CCCC/C=C/C(=O)NC[C@H]1CN(c2ccc3c(c2)-n2cccc2COC3)C(=O)O1 | MIC | ATCC 49951 (SMITH) | >32 µg/mL |
| CN(C)CC(C)(C)CNc1cc2c(cc1F)c(=O)c(C(=O)O)cn2C1CC1 | MIC | ATCC 5278 (methicillin-resistant) | >100 µg/mL |
| CCCCCCCCCCCC[N+](C)(C)COCC(C)CC | MIC | ATCC33592 | 2 µM |
| O=C(O)c1cn(C2CC2)c2cc(NCCN3CCCC3)c(F)cc2c1=O | MIC | ATCC 5278 (methicillin-resistant) | 1.56 µg/mL |
| O=C(CC(F)(F)F)NC[C@H]1CN(c2ccc3c(c2)-n2cccc2COC3)C(=O)O1 | MIC | ATCC 33591 (MRSA) | 8 µg/mL |
| Cc1cn(-c2ccc(N3C[C@H](CSC4C=NN=N4)OC3=O)cc2F)cn1 | MIC | 122 (novobiocin-resistant) | 8 µg/mL |
| O=C(NC[C@H]1CN(c2ccc3c(c2)-n2cccc2COC3)C(=O)O1)c1ccccc1 | MIC | ATCC 49951 (SMITH) | >32 µg/mL |
| CCOCCCNc1cc2c(cc1F)c(=O)c(C(=O)O)cn2C1CC1 | MIC | ATCC 6538P | >100 µg/mL |
| O=C1O[C@@H](CNc2ccon2)CN1c1ccc(N2CCOCC2)c(F)c1 | MIC | 004 (methicillin quinolone-resistant) | 1 µg/mL |
| CC[C@H]1OC(=O)[C@H](C)C(=O)[C@H](C)[C@@H](O[C@@H]2O[C@H](C)C[C@H](N(C)C)[C@H]2O)[C@@]2(C)C[C@@H](C)C(=NC(C)=O)[C@H](C)[C@@H](OC/C(=N\OCCCc3ccccc3)CO2)[C@]1(C)O | MIC | 33591 (erythromycin methicillin-resistant) | >64 µg/mL |
| CCC(=O)NC[C@H]1CN(c2ccc3c(c2)-n2cccc2COC3)C(=O)O1 | MIC | ATCC 49951 (SMITH) | 4 µg/mL |
| CC[C@H]1OC(=O)[C@@](C)(F)C(=O)[C@H](C)[C@@H](O[C@@H]2O[C@H](C)C[C@H](N(C)C)[C@H]2O)[C@@]2(C)C[C@@H](C)C(=NC(C)=O)[C@H](C)[C@@H](OC/C(=N/OCc3ccc(-c4cccc(N)n4)s3)CO2)[C@]1(C)O | MIC | 33591 (erythromycin methicillin-resistant) | 64 µg/mL |
| CCCCCCCCCCCC[N+](C)(C)CSCCC | MIC | ATCC 6538 | 15 µM |
| CC[C@H]1OC(=O)[C@@](C)(F)C(=O)[C@H](C)[C@@H](O[C@@H]2O[C@H](C)C[C@H](N(C)C)[C@H]2O)[C@@]2(C)C[C@@H](C)C(=NC(C)=O)[C@H](C)[C@@H](OC/C(=N\OCc3ccc(C(N)=O)cc3)CO2)[C@]1(C)O | MIC | 33591 (erythromycin methicillin-resistant) | >64 µg/mL |
| CCCCC(=S)NC[C@H]1CN(c2ccc3c(c2)-n2cccc2COC3)C(=O)O1 | MIC | ATCC 49951 (SMITH) | 16 µg/mL |
| CN(C)CCCNc1cc2c(cc1F)c(=O)c(C(=O)O)cn2C1CC1 | MIC | ATCC 6538P | >100 µg/mL |
| CCCCCCCCCCCC[N+](C)(C)COC(C)CCCCCC | MIC | ATCC 6538 | 1.53 µM |
| CCCCC(CO)Nc1cc2c(cc1F)c(=O)c(C(=O)O)cn2C1CC1 | MIC | ATCC 6538P | >100 µg/mL |
| CCNc1c(F)cc2c(=O)c(C(=O)O)cn(-c3cc(N)c(F)cc3F)c2c1C | MIC | W44 (methicillin-resistant) | 0.12 µg/mL |
| CCCCCCCCCCCC[N+](C)(C)CSCCCCC | MBC | ATCC 6538 | 13.7 µM |
| CC[C@H]1OC(=O)[C@@](C)(F)C(=O)[C@H](C)[C@@H](O[C@@H]2O[C@H](C)C[C@H](N(C)C)[C@H]2O)[C@@]2(C)C[C@@H](C)C(=N)[C@H](C)[C@@H](OC/C(=N\OCc3ccc(-c4nccs4)nc3)CO2)[C@]1(C)O | MIC | 29213 (erythromycin A-susceptible) | 0.5 µg/mL |
| CCCCCCCCCCSC[N+](C)(C)CCCCCCCC | MBC | ATCC33592 | 26.3 µM |
| CC[C@H]1OC(=O)[C@H](C)C(=O)[C@H](C)[C@@H](O[C@@H]2O[C@H](C)C[C@H](N(C)C)[C@H]2O)[C@@]2(C)C[C@@H](C)C(=NC(C)=O)[C@H](C)[C@@H](OC/C(=N\OCc3ccc4nc(N)sc4c3)CO2)[C@]1(C)O | MIC | 33591 (erythromycin methicillin-resistant) | >64 µg/mL |
| O=C1O[C@@H](COc2ccon2)CN1c1ccc(-n2cnc(CO)c2)c(F)c1 | MIC | 122 (novobiocin-resistant) | 4 µg/mL |

For reference, 6 entries again:

SMILES | measure | strain | result
CC[C@H]1OC(=O)[C@@](C)(F)C(=O)[C@H](C)[C@@H](O[C@@H]2O[C@H](C)C[C@H](N(C)C)[C@H]2O)[C@@]2(C)C[C@@H](C)C(=NC(C)=O)[C@H](C)[C@@H](OC/C(=N\OCc3ccc4nc(N)sc4c3)CO2)[C@]1(C)O | MIC | 33591 (erythromycin methicillin-resistant) | 32 µg/mL
O=C(CC(F)(F)F)NC[C@H]1CN(c2ccc3c(c2)-n2cccc2COC3)C(=O)O1 | MIC | ATCC 33591 (MRSA) | 8 µg/mL
CCCCCCCCCCCC[N+](C)(C)COCC(C)CC | MIC | ATCC33592 | 2 µM
O=C1O[C@@H](COc2ccon2)CN1c1ccc(-n2cnc(CO)c2)c(F)c1 | MIC | 122 (novobiocin-resistant) | 4 µg/mL
O=C1O[C@@H](CNc2ccon2)CN1c1ccc(N2CCOCC2)c(F)c1 | MIC | 004 (methicillin quinolone-resistant) | 1 µg/mL
CN1CCN(c2cc3c(cc2F)c(=O)c(C(=O)O)cn3C2CC2)CC1 | MIC | ATCC 5278 (methicillin-resistant) | 1.56 µg/mL